Measured data: PubChem BioAssay AID1259414 (Drosophila RNAi Screening Center, 2018)
Purpose: 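Fly genes that alter Wolbachia amount inside host cells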 (primary screen). System: Drosophila JW18 cells infected with Wolbachia. Knock-down reagent: long dsRNA against Drosophila genes, 0.25 µg dsRNA per well of a 384-well plate. Timing: 5 days. Conditions: cells persistently infected with Wolbachia before knock-down; no added drug. Measured: 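Automated imaging of bacterial rRNA staining divided by host cell count, reported as plate-normalised robust z-score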. Reading the numbers: Wolbachia per cell robust z: higher = more Wolbachia per host cell than the plate typical. Call rule: 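Active if absolute robust z reaches 1.5 in two or more of three replicates, leaving out multi- or no-target dsRNAs, genes unexpressed in JW18 and A1 wells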.
The screen tested about 24,000 reagents; below is a random part of those that have a named target and a result. Over the whole deposit, about 1,210 (5%) were called active. 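Inactive calls also include excluded dsRNAs with several or no targets, genes unexpressed in JW18, and well A1, regardless of score.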 Entries without a mark were called inactive. No sequences are given here.

CG14454 [DRSC11711]: Wolbachia per cell robust z, rep 1 = 1.2; Wolbachia per cell robust z, rep 2 = 0.458; Wolbachia per cell robust z, rep 3 = 0.396
CG14454 [DRSC23866]: Wolbachia per cell robust z, rep 1 = 0.265; Wolbachia per cell robust z, rep 2 = 0.343; Wolbachia per cell robust z, rep 3 = -0.568
CG15239 [DRSC17972]: Wolbachia per cell robust z, rep 1 = 0.649; Wolbachia per cell robust z, rep 2 = -0.0769; Wolbachia per cell robust z, rep 3 = -0.314
CG15239 [DRSC25155]: Wolbachia per cell robust z, rep 1 = 1.49; Wolbachia per cell robust z, rep 2 = 0.353; Wolbachia per cell robust z, rep 3 = 1.19
CG6340 [DRSC19987]: Wolbachia per cell robust z, rep 1 = 0.459; Wolbachia per cell robust z, rep 2 = 1.15; Wolbachia per cell robust z, rep 3 = 0.115
CG6340 [DRSC25288]: Wolbachia per cell robust z, rep 1 = -3.32 (active); Wolbachia per cell robust z, rep 2 = -1.99; Wolbachia per cell robust z, rep 3 = -1.82
RhoGAP16F (Rho GTPase activating protein at 16F) [DRSC20025]: Wolbachia per cell robust z, rep 1 = -0.155; Wolbachia per cell robust z, rep 2 = 0.852; Wolbachia per cell robust z, rep 3 = 0.194
mIF3 (mitochondrial translation initiation factor 3) [DRSC06290]: Wolbachia per cell robust z, rep 1 = -1.29; Wolbachia per cell robust z, rep 2 = 0.535; Wolbachia per cell robust z, rep 3 = -0.412
CG31145 [DRSC14206]: Wolbachia per cell robust z, rep 1 = -1.88; Wolbachia per cell robust z, rep 2 = -0.859; Wolbachia per cell robust z, rep 3 = 0.224
CG31145 [DRSC14671]: Wolbachia per cell robust z, rep 1 = -2.04; Wolbachia per cell robust z, rep 2 = 0.73; Wolbachia per cell robust z, rep 3 = 0.614
CG31145 [DRSC26758]: Wolbachia per cell robust z, rep 1 = 0.699; Wolbachia per cell robust z, rep 2 = 0.972; Wolbachia per cell robust z, rep 3 = 2.54
CG9636 [DRSC16529]: Wolbachia per cell robust z, rep 1 = -0.863; Wolbachia per cell robust z, rep 2 = -0.26; Wolbachia per cell robust z, rep 3 = 0.113
CG42268 [DRSC10171]: Wolbachia per cell robust z, rep 1 = -0.816; Wolbachia per cell robust z, rep 2 = 0.539; Wolbachia per cell robust z, rep 3 = -1.04
CG42268 [DRSC10702]: Wolbachia per cell robust z, rep 1 = 0.693; Wolbachia per cell robust z, rep 2 = -0.912; Wolbachia per cell robust z, rep 3 = -1.56
CG42268 [DRSC21797]: Wolbachia per cell robust z, rep 1 = 0.413; Wolbachia per cell robust z, rep 2 = 0.279; Wolbachia per cell robust z, rep 3 = -0.172
CG42268 [DRSC25299]: Wolbachia per cell robust z, rep 1 = 1.76; Wolbachia per cell robust z, rep 2 = 0.164; Wolbachia per cell robust z, rep 3 = 2.37
CG42268 [DRSC29387]: Wolbachia per cell robust z, rep 1 = 1.2; Wolbachia per cell robust z, rep 2 = 0.123; Wolbachia per cell robust z, rep 3 = -0.216
Mal-A1 (Maltase A1) [DRSC07461]: Wolbachia per cell robust z, rep 1 = 0.0235; Wolbachia per cell robust z, rep 2 = 0.102; Wolbachia per cell robust z, rep 3 = -5.96
Mal-A1 (Maltase A1) [DRSC29096]: Wolbachia per cell robust z, rep 1 = -1.25; Wolbachia per cell robust z, rep 2 = -2.32; Wolbachia per cell robust z, rep 3 = 0.0454
rdhB (retinol dehydrogenase B) [DRSC16190]: Wolbachia per cell robust z, rep 1 = -0.385; Wolbachia per cell robust z, rep 2 = -0.379; Wolbachia per cell robust z, rep 3 = 1.17
Hsp60C (Heat shock protein 60C) [DRSC03036]: Wolbachia per cell robust z, rep 1 = 0.608; Wolbachia per cell robust z, rep 2 = 2.28; Wolbachia per cell robust z, rep 3 = -1.59
Hsp60C (Heat shock protein 60C) [DRSC29438]: Wolbachia per cell robust z, rep 1 = -1.84; Wolbachia per cell robust z, rep 2 = -0.611; Wolbachia per cell robust z, rep 3 = -0.325
CG43131 [DRSC12046]: Wolbachia per cell robust z, rep 1 = 0.208; Wolbachia per cell robust z, rep 2 = -1.67; Wolbachia per cell robust z, rep 3 = -0.969
CLS (Cardiolipin synthase) [DRSC15642]: Wolbachia per cell robust z, rep 1 = 0.0403; Wolbachia per cell robust z, rep 2 = -2.22; Wolbachia per cell robust z, rep 3 = 0.5
CLS (Cardiolipin synthase) [DRSC28289]: Wolbachia per cell robust z, rep 1 = 0.452; Wolbachia per cell robust z, rep 2 = 0.0109; Wolbachia per cell robust z, rep 3 = 0.772

Already shown: entries from further up.
Mal-A1 (Maltase A1) [DRSC29096]: Wolbachia per cell robust z, rep 1 = -1.25; Wolbachia per cell robust z, rep 2 = -2.32; Wolbachia per cell robust z, rep 3 = 0.0454
rdhB (retinol dehydrogenase B) [DRSC16190]: Wolbachia per cell robust z, rep 1 = -0.385; Wolbachia per cell robust z, rep 2 = -0.379; Wolbachia per cell robust z, rep 3 = 1.17
